Assay results: patent US20240026086A1, “POLYPHENOL DERIVATIVE AND POLYMER MATERIAL” (TOPPAN INC., priority 2020, published 2024)

Test: Light emission visibility test of coating films on glass under 365 nm ultraviolet light
Assay type: physicochemical
Details: ultraviolet irradiation 365 nm

In the case of `O=C(OC[C@H]1O[C@@H](OC(=O)c2cc(O)c(O)c(OC(=O)c3cc(O)c(O)c(O)c3)c2)[C@H](OC(=O)c2cc(O)c(O)c(OC(=O)c3cc(O)c(O)c(O)c3)c2)[C@@H](OC(=O)c2cc(O)c(O)c(OC(=O)c3cc(O)c(O)c(O)c3)c2)[C@@H]1OC(=O)c1cc(O)c(O)c(OC(=O)c2cc(O)c(O)c(O)c2)c1)c1cc(O)c(O)c(OC(=O)c2cc(O)c(O)c(O)c2)c1` [compound 1, tannic acid], the “light emission at a wavelength in a visible range (in words)” value is reported as “almost no light emission at a wavelength in a visible range was observed”.
